The values that follow come from patent publication US20110059962A1, “TRANSCRIPTION FACTOR MODULATING COMPOUNDS AND METHODS OF USE THEREOF” (priority 2009, published 2011).

Construct, isoform or probe ends are uncertain for at least one entry. Where a protein sequence is shown, tags need not be part of it.

The data set deals with T1, ExsA (Pseudomonas aeruginosa) (UniProt P26993).
T1 sequence (looked up, limits assumed): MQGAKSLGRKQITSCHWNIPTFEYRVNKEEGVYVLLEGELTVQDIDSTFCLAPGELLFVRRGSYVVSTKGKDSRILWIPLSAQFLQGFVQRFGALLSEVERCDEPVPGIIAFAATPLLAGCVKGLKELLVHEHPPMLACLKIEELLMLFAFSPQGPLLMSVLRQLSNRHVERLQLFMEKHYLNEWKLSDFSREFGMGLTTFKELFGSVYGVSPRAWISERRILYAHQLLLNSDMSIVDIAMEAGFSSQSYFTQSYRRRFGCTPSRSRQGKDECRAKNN
Put plainly: binding assay. Conditions: chemiluminescence plate assay, 20 nM protein, 2 nM DNA; binding inhibited by compounds; DNA sequence given only in Example 12; purified recombinant protein; protein details: 6xHis.

Regarding “CCGATTTAGCAAAACGTCGCATCGGTC (double strand) [biotinylated target dsDNA]”, the binding result is reported as “binds”.
